# Patent US20230172958A1, “USE OF COMPOUNDS FOR TREATING VIRAL INFECTIONS” (priority 2020, published 2023)
# System: SARS-CoV-2
# Test: Neutral Red reduction of virus-induced cytopathic effect (primary CPE assay) in Vero 76 cells
# Format: cell-based
# Set-up: unit not given beside the values
# Settings: CC50 divided by EC50
row,Structure (SMILES),SI50
1,"COc1cc2c(OC3OCC(OC)C(OC)C3O)c3c(c(-c4ccc5c(c4)OCO5)c2cc1OC)C(=O)OC3 (centres unmarked) [Compound of Formula A, 9-(benzo[d][1,3]dioxol-5-yl)-6,7-dimethoxy-4-(tetrahydro-3-hydroxy-4,5-dimethoxy-2H-pyran-2-yloxy)naphtho[2,3-c]furan-1(3H)-one]",0
2,"CCOC(=O)c1c(C(=O)OCC)c(-c2ccc3c(c2)OCO3)c2cc(OC)c(OC)cc2c1OC1OCC(OC)C(OC)C1O (centres unmarked) [Compound of Formula D, diethyl 1-(benzo[d][1,3]dioxol-5-yl)-6,7-dimethoxy-4-(tetrahydro-3-hydroxy-4,5-dimethoxy-2H-pyran-2-yloxy)naphthalene-2,3-dicarboxylate]",1.3
3,"COC1COC(Oc2ccc(-c3ccc4c(c3)OCO4)c3ccccc23)C(O)C1OC (centres unmarked) [Compound of Formula E, 2-(1-(benzo[d][1,3]dioxol-5-yl)naphthalen-4-yloxy)-tetrahydro-4,5-dimethoxy-2H-pyran-3-ol]",7.1
4,"O[C@H]1[C@H](O)COC(Oc2ccc(-c3ccc4c(c3)OCO4)c3ccccc23)[C@@H]1O (stereo partly drawn) [Compound of Formula F, (3R,4S,5R)-2-(1-(benzo[d][1,3]dioxol-5-yl)naphthalen-4-yloxy)-tetrahydro-2H-pyran-3,4,5-triol]",11
5,"COc1cc2c(OCCCCN3CCOCC3)c3c(c(-c4ccc5c(c4)OCO5)c2cc1OC)C(=O)OC3 [Compound of Formula L, 4-(4-morpholinobutoxy)-9-(benzo[d][1,3]dioxol-5-yl)-6,7-dimethoxynaphtho[2,3-c]furan-1(3H)-one]",0
